## Screening data, single-dose tests

Source: ChEMBL document CHEMBL3988442, “University of Dundee, Small-Polar-MMV Screening Library” (2021).

Results are given as percent effect. The record does not define 0% and 100%; most values in the screen are far below 50% and negative numbers occur (in some assays of this library far below -100). This is part of a subset picked to be rich in strong results.

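Growth of Mycobacterium tuberculosis over 4 days (cholesterol / DPPC medium with tyloxapol); the read-out is not stated. Compounds at 500 µM. The record gives no direction; compounds that gave an IC50 in retests scored well above the rest, so higher reads as more growth inhibition. Of about 18,000 compounds tested this way, about 900 (5%) reached 50% or more in at least one test.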

| Compound | effect |
|---|---|
| `CS(=O)(=O)N1CCOCC12CCC2` | -3.003% |
| `COc1ccc(OCCCS(N)(=O)=O)cc1` | 20.79% |
| `CNCCc1nc2cc(OC)ccc2[nH]1` | 31.35% |
| `CCC(CC)C(O)CNC(=O)Cn1cnnn1` (centres undefined) | -19.89% |
| `CCC(O)CCNS(=O)(=O)c1cnc2ccccc2c1` (centres undefined) | -3.772% |
| `C[C@@H](C(=O)NCCCc1cccnc1)n1cnnn1` | 8.008% |
| `Nc1nnc(SCc2ccno2)s1` | -2.424% |
| `CN(C)C(=O)NC1CCCNC1` (centres undefined) | -13.92% |
| `O=C(Nc1cccc(-n2cnnn2)c1)C1CCCO1` (centres undefined) | 4.515% |
| `COc1ccc(C)c(NC(=O)CNC(=O)C2CC2)c1` | 0.01176% |
| `C[C@@H]1CN(C(=O)CCc2cnn(C)c2)C[C@]1(C)O` | 12.4% |
| `CNS(=O)(=O)c1ccc(C(=O)N2CCCCC2C)o1` (centres undefined) | 3.57% |
| `CC(C)(O)C(=O)NC1CCN(CC2CCCC2)CC1` | 8.017% |
| `CC(C)NC(=O)CN1CCCN(c2ccccn2)CC1` | 17.53% |
| `CNC(=O)CCN(C)C(=O)C(C)Oc1ccccc1Br` (centres undefined) | -7.78% |
| `CC(C)n1nnnc1SCCS(=O)(=O)c1ccccc1` | 56.32% |
| `CCC(C)NC(=O)Cc1ccc2c(c1)OCCO2` (centres undefined) | 52.32% |
| `NCCS(=O)(=O)N1CCc2ccccc21` | 70.73% |
| `CCCNC(=O)N1CCC2(CC1)OCCO2` | 32.46% |
| `CN1C(=O)C(N)Cc2ccccc21` (centres undefined) | -36.79% |
| `CC(C)N1CCC(C(=O)NCCc2cnccn2)CC1` | 4.706% |
| `Cn1nnnc1C1CCCN(C(=O)c2ccccc2)C1` (centres undefined) | -4.995% |
| `Cc1nnc(SC(C)C(=O)NC2=NCCS2)s1` (centres undefined) | 17.11% |
| `CCOC(=O)Nc1ccc2c(c1)OCCO2` | 71.86% |
| `COCCN(C(=O)c1sccc1OC)c1ccncc1` | 5.333% |
| `CC(C)c1cc(C(=O)N2CC(c3ccccn3)C2)no1` | 69.87% |
| `CCCn1ccnc1CNC(=O)[C@H]1CC[C@@H](O)CC1` | -11.51% |
| `CCC(=O)c1ccc(CN)cc1` | 53.14% |
| `O=C(CCN1CCC[C@H]1CO)Nc1ccccc1Cl` | -10.92% |
| `CC(C)COCC(O)CNc1nnc(C(C)C)s1` (centres undefined) | 84.49% |
| `CCN(CC(=O)NCc1ccc(Cl)s1)S(C)(=O)=O` | 21.91% |
| `CN(C)S(=O)(=O)N1CCCC1c1ccccc1Br` (centres undefined) | 57.16% |
| `COc1ccc(CCN2CCCNCC2)cc1` | 62.34% |
| `Cn1c(=O)c2c(nc(Cl)n2CCCC#N)n(C)c1=O` | 61.57% |
| `COC(=O)c1snc(-c2ccccc2)c1N` | 49.91% |
| `CCN1CCN(S(=O)(=O)c2cc(C)ccc2OC)CC1` | 16.47% |
| `NC1CCCCC1=O` (centres undefined) | 1.775% |
| `COc1ccccc1OC1CN(c2nccc(N)n2)C1` | 10.75% |
| `CNC(=O)c1cccc(CN(CC(C)(C)O)C(C)C)c1` | 5.546% |
| `CCCc1cc(=O)[nH]c(C(C)(N)CC)n1` (centres undefined) | -2.297% |
| `Cc1c(C(=O)NC(C)C(N)=O)sc2cccc(F)c12` (centres undefined) | -3% |
| `CC(C)CN1CCN(c2ncccc2F)CC1` | -3.334% |
| `CCC(=O)NCc1ccc(-n2cncn2)nc1` | -2.678% |
| `NCC(=O)N1CCCC(CCc2ccc(F)c(F)c2)C1` (centres undefined) | 89.66% |
| `Cc1nonc1CC(=O)N(C)CCN1CCCCC1=O` | -14.08% |
| `CCC(C)N(C)CCNC(=O)NC1CC1` (centres undefined) | -17.13% |
| `Cn1cc(Br)c(=O)c(NC(=O)c2ccc(O)cc2F)c1` | 3.635% |
| `O=C(CCc1ccccc1)NC1CCNCC1` | 16.05% |

5 of the entries, repeated:

| Compound | effect |
|---|---|
| `CCC(=O)c1ccc(CN)cc1` | 53.14% |
| `CCOC(=O)Nc1ccc2c(c1)OCCO2` | 71.86% |
| `CN1C(=O)C(N)Cc2ccccc21` (centres undefined) | -36.79% |
| `CS(=O)(=O)N1CCOCC12CCC2` | -3.003% |
| `COC(=O)c1snc(-c2ccccc2)c1N` | 49.91% |